In US20090203545:

Experiments:
[1] = tested on: EBNA-1 DNA-binding domain derivative (dnEBNA1/Softag1) (Epstein-Barr virus); assay: competition with a labelled probe; conditions: competitive EMSA, protein details: Softag1 epitope
[2] = tested on: EBNA-1 DNA-binding domain derivative (dnEBNA1/Softag1) (Epstein-Barr virus); assay: EMSA; conditions: 1.6 nM protein, room temperature, 30 min; protein details: Softag1 epitope; label: end-labeled

Row | Sequence | binding result [1] | also measured
1 | GCCGGCGATCGATCGATAGTATATACTACTACCCGGGAAGCATATGCTACCGATCGATCACTAGCATCGATAGTATATACTACTACCCGGGAAGCATATGCTACCGATCGATCACTAGT (double strand) [2x(DS 1+2)] | binds | –
2 | GCCGGCGATCGATCGATAGTATATACTACTACCCGGGAAGCATATGCTACCGATCGATCACTAGCATCGATAGTATATACTACTACCCGGGAAGCATATGCTACCGATCGATCACTAGT (double strand) [4xFRbs] | binds | –
3 | GCCGGCGATCGATCGATAGTATATACTACTACCCGGGAAGCATATGCTACCGATCGATCACTAGCATCGATAGTATATACTACTACCCGGGAAGCATATGCTACCGATCGATCACTAGT (double strand) [S-W-W-S] | binds | –
4 | GATAGCATATGCTACC (double strand) [single EBNA-1 site from FR (probe)] | – | binding result [2]: binds
5 | GCCGGCGATCGATCGATAGTATATACTACTACCCGGGAAGCATATGCTACCGATCGATCACTAGCATCGATAGTATATACTACTACCCGGGAAGCATATGCTACCGATCGATCACTAGT (double strand) [4xSiteIIIbs] | binds | –
6 | GATATCGCTGTTCCTTAGGACCCTTTTACTAACCCTAATTCGATAGCATATGCTTCCCGTTGGGTAACATATGCTATTGAATTAGGGTTAGTCTGGATAGTATATACTACTACCCGGGAAGCATATGCTACCCGTTTAGGGTTAACAAGCTTGATATC (double strand) [wtDS] | – | binding result ([1]; 4xFRbs > wtDS or 4xSiteIIIbs > 2x(DS 1+2) or SWWS >> 4xRep*bs): binds

For at least one entry, the source does not settle the construct or the ends of the probe.
